From patent publication US7731971B2, “Enhanced CTL epitope-containing HIV-1 reverse transcriptase polypeptides” (The United States of America as represented by the …, priority 2003, dated 2010)

Legend:
HLA-A2.1 = HLA-A2.1 (Homo sapiens, UniProt P04439, D140Y/D185E/D98H/E176V/E277Q/G131W/G231S/I119V/I121R/I166T/I218V/L300P/L318F/N151K/N90K/P208A/P217A/Q86G/Q94H/R138H/R169H/T345S); assay type: binding
RT-specific CTL lines = assay: RANTES production by peptide-specific CTL lines (ELISA); assay type: cell-based, mouse; conditions: HHD-2 mice (FIG. 4B)
immune spleen cells = assay: In vivo immunogenicity: antigen-specific IFN-γ production by bulk cultures from immunized HHD-2 mice; design: species or system HHD-2-transgenic mice; conditions: HHD-2 mice immunized twice with 50 nmol peptide; supernatant after 48 hr (FIG. 5B)

| Sequence | HLA-A2 binding compared among RT peptides (FIG. 1A) (HLA-A2.1) | FI0.5 (HLA-A2.1) | also measured |
| --- | --- | --- | --- |
| YIYQYMDDL [RT-1Y] | higher affinity than RT-WT | – | – |
| YLYQYMDDV | highest affinity of all the peptides | – | HLA-A2 binding ability compared with FMP (FIG. 1B) (HLA-A2.1): almost as good as that of FMP; crossreactivity of peptide-specific CTL for wild-type peptide (RANTES production) (RT-specific CTL lines): significantly weaker; antigen-specific IFN-γ production by peptide-immunized bulk culture (immune spleen cells): much higher IFN-γ production |
| VIYQYMADL [Peptide 7A] | – | >100 μsM | – |
| VIYQYMDDV [Peptide 9V] | – | 19.9 μsM | – |
| VAYQYMDDL [Peptide 2A] | – | >100 μsM | – |
